# According to US20200148741A1:
# Target: recombinant staphylococcal enterotoxin B (SEB), mature protein with N-terminal His6-tag (Staphylococcus aureus COL), P01552
binder,measurement,value
"EKFDSVHSKYM [pB2-4, immobilized for Surface Plasmon Resonance]",Kd,2320 nM
same,koff,0.000958 s⁻¹
same,kon,413 M⁻¹ s⁻¹
